Source: publication PMC8247773, “Benzohydrazide and Phenylacetamide Scaffolds: New Putative ParE Inhibitors” (Frontiers in Bioengineering and Biotechnology, 2021)
A number of entries come with more than one value. They are shown here; other results are not. There may be further records. Results that share an entry differ for a reason that is not stated; some may be repeats, others may stem from another dose, organism or construct than stated.

The chains behind the UniProt entries cited, without tags or fusion partners.
UniProt P20083, whole entry: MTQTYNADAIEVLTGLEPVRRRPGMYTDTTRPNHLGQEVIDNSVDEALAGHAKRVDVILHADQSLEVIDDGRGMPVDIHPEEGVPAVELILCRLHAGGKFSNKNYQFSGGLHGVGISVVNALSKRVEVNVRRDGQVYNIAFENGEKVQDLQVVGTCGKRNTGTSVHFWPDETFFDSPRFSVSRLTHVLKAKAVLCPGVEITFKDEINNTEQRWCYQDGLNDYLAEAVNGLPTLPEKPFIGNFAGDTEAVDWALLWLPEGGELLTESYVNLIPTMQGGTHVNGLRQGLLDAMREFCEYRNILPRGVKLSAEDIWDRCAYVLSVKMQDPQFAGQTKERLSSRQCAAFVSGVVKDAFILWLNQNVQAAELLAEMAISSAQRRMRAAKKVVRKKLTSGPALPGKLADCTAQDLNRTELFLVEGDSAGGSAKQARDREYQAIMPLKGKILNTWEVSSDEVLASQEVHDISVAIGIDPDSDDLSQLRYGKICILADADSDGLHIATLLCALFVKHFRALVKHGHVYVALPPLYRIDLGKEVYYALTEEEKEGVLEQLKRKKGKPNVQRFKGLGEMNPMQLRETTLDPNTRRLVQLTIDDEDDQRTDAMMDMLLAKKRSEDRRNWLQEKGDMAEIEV
UniProt P0AFI2, whole entry partner: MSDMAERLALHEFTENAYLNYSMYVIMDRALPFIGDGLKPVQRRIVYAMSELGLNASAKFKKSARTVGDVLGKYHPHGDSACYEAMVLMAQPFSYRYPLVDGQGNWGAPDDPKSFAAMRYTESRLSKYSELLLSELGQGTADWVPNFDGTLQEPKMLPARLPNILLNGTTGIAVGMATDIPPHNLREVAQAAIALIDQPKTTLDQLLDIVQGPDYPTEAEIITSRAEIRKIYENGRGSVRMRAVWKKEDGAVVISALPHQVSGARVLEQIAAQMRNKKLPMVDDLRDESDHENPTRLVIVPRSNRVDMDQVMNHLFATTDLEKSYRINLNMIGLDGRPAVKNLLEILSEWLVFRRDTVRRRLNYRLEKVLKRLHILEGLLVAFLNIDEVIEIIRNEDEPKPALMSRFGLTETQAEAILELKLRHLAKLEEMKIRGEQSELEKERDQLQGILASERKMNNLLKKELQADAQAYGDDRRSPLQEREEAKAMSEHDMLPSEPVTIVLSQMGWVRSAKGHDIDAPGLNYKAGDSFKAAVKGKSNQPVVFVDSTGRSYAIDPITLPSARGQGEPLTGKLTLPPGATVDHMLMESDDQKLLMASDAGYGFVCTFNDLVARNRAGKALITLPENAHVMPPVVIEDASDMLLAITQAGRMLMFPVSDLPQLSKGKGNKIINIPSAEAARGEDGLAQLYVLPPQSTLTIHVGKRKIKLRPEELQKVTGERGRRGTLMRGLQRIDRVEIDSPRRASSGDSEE

Biological target: E. coli ParE enzyme (Escherichia coli, UniProt P20083)
Experiment: E. coli ParE ATPase enzyme inhibition assay (ProFoldin kit, malachite green)
Conditions: ATPase activity, mean ± SD (n = 3)

O=C(CSc1nc2ccccc2s1)Nc1ccc([N+](=O)[O-])cc1 [Compound 24]
IC50 against E. coli ParE enzyme: < 1 μg/mL and 0.48 ± 0.03 μg/mL
